{
  "source": "paper PMC10276184",
  "assay_in_all_cases": "fluorescence polarization",
  "key": {"[1]": {"target": "JDBD-H440A (Leishmania tarentolae) (UniProt Q9U6M1)", "details": "T7 = base J (beta-D-glucopyranosyloxymethyluracil); printed GGCAGCJGCAACAA; 20 mM HEPES pH 7.5, 140 mM NaCl, 2 mM MgCl2, 1 mM TCEP, 1 mg/ml chicken ovalbumin, 0.05% Tween 20, 1 nM TAMRA-DNA; dilutions prepared on ice; recombinant protein; protein details: His6"}, "[2]": {"target": "JBP1 wt full-length (Leishmania tarentolae) (UniProt Q9U6M1)", "details": "T7 = base J (beta-D-glucopyranosyloxymethyluracil); printed GGCAGCJGCAACAA; 20 mM HEPES pH 7.5, 140 mM NaCl, 2 mM MgCl2, 1 mM TCEP, 1 mg/ml chicken ovalbumin, 0.05% Tween 20, 1 nM TAMRA-DNA; dilutions prepared on ice; recombinant protein; residues 1-827"}, "[3]": {"target": "JDBD-E437A (Leishmania tarentolae) (UniProt Q9U6M1)", "details": "T7 = base J (beta-D-glucopyranosyloxymethyluracil); printed GGCAGCJGCAACAA; 20 mM HEPES pH 7.5, 140 mM NaCl, 2 mM MgCl2, 1 mM TCEP, 1 mg/ml chicken ovalbumin, 0.05% Tween 20, 1 nM TAMRA-DNA; dilutions prepared on ice; recombinant protein; protein details: His6"}, "[4]": {"target": "Δ23-JBP1 (Leishmania tarentolae) (UniProt Q9U6M1)", "details": "T7 = base J (beta-D-glucopyranosyloxymethyluracil); printed GGCAGCJGCAACAA; 20 mM HEPES pH 7.5, 140 mM NaCl, 2 mM MgCl2, 1 mM TCEP, 1 mg/ml chicken ovalbumin, 0.05% Tween 20, 1 nM TAMRA-DNA; dilutions prepared on ice; recombinant protein; residues 23-827"}, "[5]": {"target": "Δ38-JBP1 (Leishmania tarentolae) (UniProt Q9U6M1)", "details": "T7 = base J (beta-D-glucopyranosyloxymethyluracil); printed GGCAGCJGCAACAA; 20 mM HEPES pH 7.5, 140 mM NaCl, 2 mM MgCl2, 1 mM TCEP, 1 mg/ml chicken ovalbumin, 0.05% Tween 20, 1 nM TAMRA-DNA; dilutions prepared on ice; recombinant protein; residues 38-827"}},
  "note": "The exact form of at least one protein or probe is not confirmed.",
  "data": [
    {"sequence": "GGCAGCTGCAACAA (double strand) [J-DNA]", "values": [
      {"measurement": "Kd", "setting": "[1]", "result": 57, "unit": "nM"},
      {"measurement": "Kd", "setting": "[2]", "result": 6.4, "unit": "nM"},
      {"measurement": "Kd", "setting": "[3]", "result": 30, "unit": "nM"},
      {"measurement": "Kd", "setting": "[4]", "result": 20.8, "unit": "nM"},
      {"measurement": "Kd", "setting": "[5]", "result": 31.2, "unit": "nM"}
    ]}
  ]
}
